These results are taken from patent publication US20220211823.

In series [1] the target is LHN/A1 with an EK cleavage site (DDDDK) inserted into the activation loop.
Series [2] deals with wild-type Met BoNT/A1 (Metabiologics A1080116).

B1: Enterokinase, light chain (NEB #P8070) (protein)
chain: IVGGSDSREGAWPWVVALYFDDQQVCGASLVSRDWLVSAAHCVYGRNMEPSKWKAVLGLHMASNLTSPQIETRLIDQIVINRHYNKRRKNNDIAMMHLEMKVNYTDYIQPICLPEENQVFPPGRICSIAGWGALIYQGSTADVLQEADVPLLSNEKCQQQMPEYNITENMVCAGYDAGGVDSCQGDSGGPLMCQENNRWLLAGVTSFGYQCALPNRPGVYARVPRFTEWIQSFLH
Take B1: the “proteolytic cleavage, SDS-PAGE” value in series [1] is recorded as “cleavage of the modified loop is much less efficient than the wild-type loop”.

B2: Factor Xa (NEB #P8010) (protein)
chain 1: IVGGRDCAEGECPWQALLVNEENEGFCGGTILNEFYVLTAAHCLHQAKRFTVRVGDRNTEQEEGNEMAHEVEMTVKHSRFVKETYDFDIAVLRLKTPIRFRRNVAPACLPEKDWAEATLMTQKTGIVSGFGRTHEKGRLSSTLKMLEVPYVDRSTCKLSSSFTITPNMFCAGYDTQPEDACQGDSGGPHVTRFKDTYFVTGIVSWGEGCARKGKFGVYTKVSNFLKWIDKIMKARAGAAGSRGHSEAPATWTVPPPLPL
chain 2: ANSFLEEVKQGNLERECLEEACSLEEAREVFEDAEQTDEFWSKYKDGDQCEGHPCLNQGHCKDGIGDYTCTCAEGFEGKNCEFSTREICSLDNGGCDQFCREERSEVRCSCAHGYVLGDDSKSCVSTERFPCGKFTQGRS
As for B2, the “proteolytic cleavage, SDS-PAGE” value in series [2] is recorded as “FXa does not cleave the A1 activation loop”.
